# Measurements taken from patent US20250115620A1, “BRIDGED TRICYCLIC CARBAMOYLPYRIDONE COMPOUNDS AND USES THEREOF” (Gilead Sciences, Inc., priority 2022, published 2025).
# Tested on: pLAI reporter virus
# Assay type: cell-based, HIV
# Conditions: EC50 (50% HS)/EC50 (CCM)
row,SMILES,RLUC 50% HS Shift
1,"C[C@H]1CC[C@]2(CC(CO)=NO2)[C@H]2CN1C(=O)c1c(O)c(=O)c(C(=O)NCc3ccc(F)cc3F)cn12 [Example 16, (3′S,5S,7′R)—N-(2,4-difluorobenzyl)-12′-hydroxy-3-(hydroxymethyl)-3′-methyl-1′,11′-dioxo-1′,4′,5′,11′-tetrahydro-3′H,4H,7′H-spiro[isoxazole-5,6′-[2,7]methanopyrido[1,2-a][1,4]diazonine]-10′-carboxamide]",19×
2,"C[C@H]1CC[C@]2(CC(CF)=NO2)[C@H]2CN1C(=O)c1c(O)c(=O)c(C(=O)NCc3ccc(F)cc3F)cn12 [Example 17, (3′S,5S,7′R)—N-(2,4-difluorobenzyl)-3-(fluoromethyl)-12′-hydroxy-3′-methyl-1′,11′-dioxo-1′,4′,5′,11′-tetrahydro-3′H,4H,7′H-spiro[isoxazole-5,6′-[2,7]methanopyrido[1,2-a][1,4]diazonine]-10′-carboxamide]",1128×
3,"C[C@H]1CC[C@@]2(CC(CF)=NO2)[C@H]2CN1C(=O)c1c(O)c(=O)c(C(=O)NCc3ccc(F)cc3F)cn12 [Example 18, (3′S,5R,7′R)—N-(2,4-difluorobenzyl)-3-(fluoromethyl)-12′-hydroxy-3′-methyl-1′,11′-dioxo-1′,4′,5′,11′-tetrahydro-3′H,4H,7′H-spiro[isoxazole-5,6′-[2,7]methanopyrido[1,2-a][1,4]diazonine]-10′-carboxamide]",2×
4,"C[C@H]1CC[C@]2(CC(CF)=NO2)[C@H]2CN1C(=O)c1c(O)c(=O)c(C(=O)NCc3c(F)cc(F)cc3F)cn12 [Example 19, (3′S,5S,7′R)-3-(fluoromethyl)-12′-hydroxy-3′-methyl-1′,11′-dioxo-N-(2,4,6-trifluorobenzyl)-1′,4′,5′,11′-tetrahydro-3′H,4H,7′H-spiro[isoxazole-5,6′-[2,7]methanopyrido[1,2-a][1,4]diazonine]-10′-carboxamide]",813×
5,"C[C@H]1CC[C@]2(CC(C(F)F)=NO2)[C@H]2CN1C(=O)c1c(O)c(=O)c(C(=O)NCc3c(F)cc(F)cc3F)cn12 [Example 20, (3′S,5S,7′R)-3-(difluoromethyl)-12′-hydroxy-3′-methyl-1′,11′-dioxo-N-(2,4,6-trifluorobenzyl)-1′,4′,5′,11′-tetrahydro-3′H,4H,7′H-spiro[isoxazole-5,6′-[2,7]methanopyrido[1,2-a][1,4]diazonine]-10′-carboxamide]",561×
6,"C[C@H]1CC[C@]2(CC(C(F)F)=NO2)[C@H]2CN1C(=O)c1c(O)c(=O)c(C(=O)NCc3ccc(F)cc3F)cn12 [Example 21, (3′S,5S,7′R)—N-(2,4-difluorobenzyl)-3-(difluoromethyl)-12′-hydroxy-3′-methyl-1′,11′-dioxo-1′,4′,5′,11′-tetrahydro-3′H,4H,7′H-spiro[isoxazole-5,6′-[2,7]methanopyrido[1,2-a][1,4]diazonine]-10′-carboxamide]",242×
7,"CC1=NO[C@]2(CC[C@H](C)N3C[C@H]2n2cc(C(=O)NCc4ccc(F)cc4F)c(=O)c(O)c2C3=O)C1C (stereo partly drawn) [Example 23, (3′S,5R,7′R)—N-(2,4-difluorobenzyl)-12′-hydroxy-3,3′,4-trimethyl-1′,11′-dioxo-1′,4′,5′,11′-tetrahydro-3′H,4H,7′H-spiro[isoxazole-5,6′-[2,7]methanopyrido[1,2-a][1,4]diazonine]-10′-carboxamide]",2×
8,"CC1=NO[C@]2(CC[C@H](C)N3C[C@H]2n2cc(C(=O)NCc4ccc(F)cc4F)c(=O)c(O)c2C3=O)C1O (stereo partly drawn) [Example 24, (3′S,5S,7′R)—N-(2,4-difluorobenzyl)-4,12′-dihydroxy-3,3′-dimethyl-1′,11′-dioxo-1′,4′,5′,11′-tetrahydro-3′H,4H,7′H-spiro[isoxazole-5,6′-[2,7]methanopyrido[1,2-a][1,4]diazonine]-10′-carboxamide]",2×
9,"CC1=NO[C@]2(CC[C@H](C)N3C[C@H]2n2cc(C(=O)NCc4ccc(F)cc4F)c(=O)c(O)c2C3=O)C1=O [Example 25, (3′S,5S,7′R)—N-(2,4-difluorobenzyl)-12′-hydroxy-3,3′-dimethyl-1′,4,11′-trioxo-1′,4′,5′,11′-tetrahydro-3′H,4H,7′H-spiro[isoxazole-5,6′-[2,7]methanopyrido[1,2-a][1,4]diazonine]-10′-carboxamide]",2×
10,"CC1=NO[C@@]2(CC[C@H](C)N3C[C@H]2n2cc(C(=O)NCc4ccc(F)cc4F)c(=O)c(O)c2C3=O)[C@H]1C [Example 26, (3′S,4S,5S,7′R)—N-(2,4-difluorobenzyl)-12′-hydroxy-3,3′,4-trimethyl-1′,11′-dioxo-1′,4′,5′,11′-tetrahydro-3′H,4H,7′H-spiro[isoxazole-5,6′-[2,7]methanopyrido[1,2-a][1,4]diazonine]-10′-carboxamide]",32×
11,"CC1=NO[C@@]2(CC[C@H](C)N3C[C@H]2n2cc(C(=O)NCc4ccc(F)cc4F)c(=O)c(O)c2C3=O)[C@H]1O [Example 28, (3′S,4S,5R,7′R)—N-(2,4-difluorobenzyl)-4,12′-dihydroxy-3,3′-dimethyl-1′,11′-dioxo-1′,4′,5′,11′-tetrahydro-3′H,4H,7′H-spiro[isoxazole-5,6′-[2,7]methanopyrido[1,2-a][1,4]diazonine]-10′-carboxamide]",129×
12,"CC1=NO[C@@]2(CC[C@H](C)N3C[C@H]2n2cc(C(=O)NCc4ccc(F)cc4F)c(=O)c(O)c2C3=O)C1=O [Example 29, (3′S,5R,7′R)—N-(2,4-difluorobenzyl)-12′-hydroxy-3,3′-dimethyl-1′,4,11′-trioxo-1′,4′,5′,11′-tetrahydro-3′H,4H,7′H-spiro[isoxazole-5,6′-[2,7]methanopyrido[1,2-a][1,4]diazonine]-10′-carboxamide]",210×
13,"CC1=NO[C@@]2(CC[C@H](C)N3C[C@H]2n2cc(C(=O)NCc4ccc(F)cc4F)c(=O)c(O)c2C3=O)[C@@H]1O [Example 30, (3′S,4R,5R,7′R)—N-(2,4-difluorobenzyl)-4,12′-dihydroxy-3,3′-dimethyl-1′,11′-dioxo-1′,4′,5′,11′-tetrahydro-3′H,4H,7′H-spiro[isoxazole-5,6′-[2,7]methanopyrido[1,2-a][1,4]diazonine]-10′-carboxamide]",159×
14,"CC1=NO[C@@]2(CC[C@H](C)N3C[C@H]2n2cc(C(=O)NCc4c(F)cc(F)cc4F)c(=O)c(O)c2C3=O)[C@H]1O [Example 31, (3′S,4S,5R,7′R)-4,12′-dihydroxy-3,3′-dimethyl-1′,11′-dioxo-N-(2,4,6-trifluorobenzyl)-1′,4′,5′,11′-tetrahydro-3′H,4H,7′H-spiro[isoxazole-5,6′-[2,7]methanopyrido[1,2-a][1,4]diazonine]-10′-carboxamide]",157×
15,"CC1=NO[C@@]2(CC[C@H](C)N3C[C@H]2n2cc(C(=O)NCc4c(F)cc(F)cc4F)c(=O)c(O)c2C3=O)[C@H]1F [Example 32, (3′S,4S,5R,7′R)-4-fluoro-12′-hydroxy-3,3′-dimethyl-1′,11′-dioxo-N-(2,4,6-trifluorobenzyl)-1′,4′,5′,11′-tetrahydro-3′H,4H,7′H-spiro[isoxazole-5,6′-[2,7]methanopyrido[1,2-a][1,4]diazonine]-10′-carboxamide]",652×
